For one sequence, Ki results are on record in patent US20100069468.

This data set deals with muscle-type nicotinic acetylcholine receptor. The experiment in a line: activity in cells. The settings on record: apparent KI; whole-cell current, cell-flow, 100 uM carbamoylcholine, 22 C, -60 mV, pH 7.4; protein on the cell surface; protein details: expressed on BC3H1 cells.

For at least one entry, the source does not settle the construct or the ends of the probe. At least one result comes from cells or an extract, where the contact may be indirect.

Take “UUUACCGUAAGGCCUGUCUUCGUUUGACAGCGGCUUGUUGACCCUCACACUUUGUACCUGCUGCCAA [B55]”: the Ki worked out at 1200 nM.
